From doi:10.1101/2025.04.08.647683
The exact form of at least one protein or probe is not confirmed. At least one verdict rests on a figure or table, not on a statement of the authors. Protein sequences can lack the tags named with them.

Target: T1, QuiR (UniProt Q8Y9N7)
T1 sequence (looked up, limits assumed): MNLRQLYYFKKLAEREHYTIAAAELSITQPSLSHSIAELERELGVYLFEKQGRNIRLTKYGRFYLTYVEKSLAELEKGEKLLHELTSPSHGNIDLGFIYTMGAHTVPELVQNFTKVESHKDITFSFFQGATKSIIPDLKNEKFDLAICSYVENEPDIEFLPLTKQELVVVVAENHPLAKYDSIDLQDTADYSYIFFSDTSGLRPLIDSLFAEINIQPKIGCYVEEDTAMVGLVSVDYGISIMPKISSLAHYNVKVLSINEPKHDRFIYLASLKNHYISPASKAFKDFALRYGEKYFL
Assay: EMSA
Conditions: QuiR alone, no effector; probe letters rebuilt from the primers and the genome

CGCAAGTTCATCGGTTAACCTCCTCGGAATGCCTTGATAACTCTATTGTAAGCGATTGTATAGAAAAAATCTATGGATAAATCGAAAAATATACATTAGATTAATAATTATTCCTGACTTATAATGAAAGAGAAATAAGATTGTGCATTATTGAACGTGAATAATGTAACAAATCATTTGCTGAGATTATAGTCGCAGGAGGCTTATTATGACAGATTATCCGAG (double strand) [qui1 intergenic region probe (225 nt)]
binding result: binds
